Assay results: PubChem BioAssay AID504850 (National Center for Advancing Translational Sciences (NCATS), 2011)
The entries are a selection whose mix differs from that of the whole data set. Records with an inconclusive call do not appear. The source made the active and inactive calls. The call rests on the fitted dose curve; in most records, active means well fitted inhibition curve with a large enough effect; inconclusive means small, poorly fitted or top-dose-only effect, or effect the other way; inactive means no such curve, though single readings can be large or run the other way.

Assay: Confirmation screen for delayed death inhibitors of the malarial parasite plastid, 48 hour incubation; further: nearly all actives have a fitted effect of over 65% in size
Details: P. falciparum-infected erythrocytes, luciferase growth
Potency means the concentration at half of the fitted maximal effect.

Row | Compound | Potency
1 | NC(=O)Nc1ccc([As](=O)(O)O)cc1 | active: 12.6 µM
